Assay results taken from paper PMC3656097, “Identification of Fibroblast Growth Factor Receptor 3 (FGFR3) as a Protein Receptor for Botulinum Neurotoxin Serotype A (BoNT/A)” (2013).

How the values were obtained:
[1] = biological target: recombinant binding domain of BoNT/A, His-rHC/A (Clostridium botulinum)
[2] = biological target: recombinant binding domain of BoNT/A, His-rHC/A (Clostridium botulinum); remark: listed apart in the source

Row | Substance | Kd [1] | koff [1] | kon [1] | Kd [2] | koff [2] | kon [2]
1 | FGFR3b Loop 2,3 | 15.1 nM | 0.000262 s⁻¹ | 17300 M⁻¹ s⁻¹ | 15 nM | 0.00024 s⁻¹ | 17700 M⁻¹ s⁻¹
2 | SV2C_(529–579) | 96.2 nM | 0.000124 s⁻¹ | 1290 M⁻¹ s⁻¹ | 105 nM | 0.000247 s⁻¹ | 2340 M⁻¹ s⁻¹

Where two headings read alike, the source gives them in different places.
